Compound potency records, mixed from different reports. Data source: NIAID ChemDB in PubChem.

Common to all: growth or infection tests; species: HIV-1; method: luciferase / reporter gene; endpoint: EC50

Two numbers with a dash give a range or band. ECn is the concentration giving n% inhibition of infection, replication or growth. An empty or dashed field is not shown. Rows are shuffled and stem from different studies.

compound,cell line,conditions,strain or isolate,value
COc1cnc(-n2cnc(C)n2)c2[nH]cc(C(=O)C(=O)N3CCc4c(-c5ccccn5)ncnc4N3C)c12,MT-2,,LAI,<0.5 µM
CCCC1CN(C(=O)c2ccccc2)CCN1C(=O)C(=O)c1c[nH]c2cccc(F)c12,HeLa,pseudotyped,LAI,0.0154 µM
Cc1ccsc1-c1c(C(OC(C)C)C(=O)O)c(C)nc2ccc(Cl)cc12,C8166,,,<20 µM
COc1ccc(C#N)c2[nH]cc(C(=O)N3CCN(C(=O)c4ccccc4)CC3)c12,HeLa,,,>0.5 µM
C=C(C)COC(C(=O)O)c1c(C)nc2ccc(Br)cc2c1-c1ccc(Cl)cc1,C8166,,,<20 µM
CC(Oc1ccnc2ccccc12)C(=O)N1CCC(=C(C#N)c2ccccc2)CC1,HeLa CD4,,,≤1 µM
O=C(C(=O)N1CCN(C(=O)c2ccccc2)CC1)c1c[nH]c2cccc(F)c12,HeLa,pseudotyped,LAI,2.9 µM
O=C(Cc1ccc2ccccc2c1)N1CCN(C(=O)c2ccccc2)CC1,HeLa,,,1–5 µM
COc1cnc(-n2cnc(C)n2)c2[nH]cc(C(=O)C(=O)N3CCc4c(-c5ccccc5)ncnc4N3C)c12,MT-2,,LAI,<0.5 µM
C[C@H]1CN(C(=O)c2ccccc2)CCN1C(=O)C(=O)c1c[nH]c2cccc(F)c12,HeLa,pseudotyped,LAI,0.00138 µM
CCOC(C(=O)O)c1c(C)nc2ccc(Br)cc2c1-c1ccc(Cl)cc1,C8166,,,<20 µM
CC(C)CC1CN(C(=O)c2ccccc2)CCN1C(=O)C(=O)c1c[nH]c2cccc(F)c12,HeLa,pseudotyped,LAI,0.0792 µM
CC1CN(C(=O)c2ccccc2)CCN1C(=O)C(=O)c1ccc2ccccc2n1,HeLa,,,<1 µM
C[C@@H]1CN(C(=O)c2ccccc2)CCN1C(=O)C(=O)c1ccc2c(C#N)c[nH]c2c1,HeLa,,,<1 µM
CC1CN(C(=O)c2ccccc2)CCN1C(C#N)C(=N)c1ccc2cc(O)ccc2n1,HeLa,,,>0.5 µM
C[C@@H]1CN(C(=O)c2ccccc2)CCN1C(=O)C(=O)c1c[nH]c2c(NC(=O)Nc3cccc(C(=O)O)c3)cccc12,HeLa,,,<1 µM
COc1cnc(-n2cnc(C)n2)c2[nH]cc(C(=O)C(=O)N3CC/C(=C(/C#N)c4ccccc4)CN3C)c12,MT-2,,LAI,0.4456 µM
Cc1nc2ccc(Cl)cc2c(-c2ccccc2O)c1C(OC(C)C)C(=O)O,C8166,,,<20 µM
CC1CN(C(=O)c2ccccc2)CCN1C(=O)C(=O)c1ccc2ccccc2c1,HeLa,,,<1 µM
CCc1ccc(-c2c(C(OC3(CC)CC3)C(=O)O)c(C)nc3ccc(Cl)cc23)cc1,C8166,,,<20 µM
CNC(CC(=O)O)C(=O)Nc1cccc2c(C(=O)C(=O)N3CCN(C(=O)c4ccccc4)C[C@H]3C)c[nH]c12,HeLa,,,<1 µM
CC1CN(C(=O)c2ccccc2)C(C)CN1C(=O)C(=O)c1c[nH]c2cccc(F)c12,HeLa,pseudotyped,JR-FL,0.676 µM
CCCC(C(=O)O)c1c(C)nc2ccc(Cl)cc2c1-c1ccc(Cl)cc1,C8166,,,<20 µM
CCOC(=O)c1ccccc1NC(=O)Nc1cccc2c(C(=O)C(=O)N3CCN(C(=O)c4ccccc4)C[C@H]3C)c[nH]c12,HeLa,,,<1 µM
N#CC(C(=O)c1cnc2c(F)ccc(F)c2c1Sc1ccccc1)N1CCN(C(=O)c2ccccc2)CC1,HeLa,,,1–5 µM
CC(Oc1cccc2cccnc12)C(=O)N1CCC(=C(C#N)c2ccccc2)CC1,HeLa CD4,,,≤1 µM
CC1CN(C(=O)c2ccccc2)CCN1C(=O)C(=O)c1c[nH]c2cccc(F)c12,HeLa,pseudotyped,JR-FL,0.00037 µM
C[C@@H]1CN(C(=O)c2ccccc2)CCN1C(=O)C(=O)c1cc2ccccc2cn1,HeLa,,,<1 µM
Cc1nc2ccccc2c(-c2ccc(Cl)cc2)c1C(OC(C)C)C(=O)O,C8166,,,<20 µM
CC1CN(C(=O)C(=O)c2c[nH]c3cccc(F)c23)CCN1C(=O)c1ccccc1,HeLa,pseudotyped,JR-FL,0.00214 µM
CCOC(=O)c1ccc(NC(=O)Nc2cccc3c(C(=O)C(=O)N4CCN(C(=O)c5ccccc5)C[C@H]4C)c[nH]c23)cc1,HeLa,,,<1 µM
CCOC(=O)c1c[nH]c2ccc(C(=O)C(=O)N3CCN(C(=O)c4ccccc4)C[C@H]3C)cc12,HeLa,,,1–5 µM
COC(=O)c1ccc(OC(C)C(=O)N2CC/C(=C(\C#N)c3ccccc3)CC2C)c(OC)c1,HeLa CD4,,,≤1 µM
COc1ccc2nc(C(=O)C(C#N)N3CCN(C(=O)c4ccccc4)CC3C)ccc2c1,HeLa,,,<1 µM
O=C(C(=O)N1CCN(C(=O)c2ccccc2)CC1)c1cccc2[nH]ccc12,HeLa,,,<1 µM
C[C@@H]1CN(C(=O)c2ccccc2)CCN1C(=O)C(=O)c1c[nH]c2c(NC(=O)NCCC(=O)O)cccc12,HeLa,,,<1 µM
N#CC(C(=O)c1cccc2cc[nH]c12)N1CCN(C(=O)c2ccccc2)CC1,HeLa,,,>0.5 µM
CCO[C@H](C(=O)O)c1c(C)nc2ccc(Cl)cc2c1-c1ccc(CC)cc1,C8166,,,<20 µM
C[C@H]1CN(C(=O)c2ccccc2)CCN1C(=O)C(=O)c1ccc2cnccc2n1,HeLa,,,<1 µM

Repeating the final 5 entries:

compound	cell line	conditions	strain or isolate	value
O=C(C(=O)N1CCN(C(=O)c2ccccc2)CC1)c1cccc2[nH]ccc12	HeLa			<1 µM
C[C@@H]1CN(C(=O)c2ccccc2)CCN1C(=O)C(=O)c1c[nH]c2c(NC(=O)NCCC(=O)O)cccc12	HeLa			<1 µM
N#CC(C(=O)c1cccc2cc[nH]c12)N1CCN(C(=O)c2ccccc2)CC1	HeLa			>0.5 µM
CCO[C@H](C(=O)O)c1c(C)nc2ccc(Cl)cc2c1-c1ccc(CC)cc1	C8166			<20 µM
C[C@H]1CN(C(=O)c2ccccc2)CCN1C(=O)C(=O)c1ccc2cnccc2n1	HeLa			<1 µM